The test relates to HIV-1-LAI strain. Put plainly: HIV-1-LAI replication in PHA-P-activated PBMCs, RT activity in cell supernatants. It is filed as cell-based. To be noted: doses corresponding to plasmatic concentrations observed in animals and man.

In the case of “PEG12000-IFN-alfa2b: single PEG12000 molecule conjugated to free amino groups on an IFN alfa-2b molecule via a urethane linkage”, the HIV replication entry is on record as “inhibited the HIV replication”.

The values are drawn from US20020004584A1, “HIV immune adjuvant therapy” (priority 2000, published 2002).
